Compound potency records, mixed from different reports. Data source: NIAID ChemDB in PubChem.

All rows: whole-cell or culture tests

Zone: diameter of growth inhibition. MIC50, MIC90 and the like: level of inhibition, or share of isolates inhibited. Percent inhibition refers to the dose given; in toxicity tests it is the harm to the cells. Neighbouring rows are from separate reports. Blank or dashed fields: not listed here.

| compound | mutations | read by | organism | endpoint | strain or isolate | dose | conditions | result |
|---|---|---|---|---|---|---|---|---|
| CCC(C)/C=C1\SC(=O)N(CC(O)(Cn2nccn2)c2ccc(F)cc2F)C1=O | - | - | Aspergillus glaucus | MIC | - | - | - | >100 µg/mL |
| Cc1ccc(-n2cc(-c3ccc([N+](=O)[O-])cc3)c(-c3ccon3)n2)cc1 | - | agar diffusion / agar | Aspergillus fumigatus | zone | - | 1.25 mg/mL | - | 9 mm |
| Cc1nc(OCc2nc(-c3ccco3)n[nH]2)c2ccccc2n1 | - | - | Aspergillus flavus | MIC100 | MTCC 277 | - | - | 25 µg/mL |
| CCCCCCCCCCCCOC(=O)[C@]1(O)C[C@@H](O)[C@@H](O)[C@H](OC(=O)/C=C/c2ccc(O)c(O)c2)C1 | - | absorbance | Aspergillus parasiticus | MIC50 | UMIP 1142.76 | - | - | 750 µg/mL |
| COc1ccc(-c2n[nH]c(COc3nc(C(F)(F)F)nc4ccccc34)n2)cc1OC | - | - | Aspergillus flavus | MIC100 | MTCC 277 | - | - | 25 µg/mL |
| Cn1cccc1/C=C1\SC(=O)N(CC(O)(Cn2nccn2)c2ccc(F)cc2F)C1=O | - | - | Aspergillus glaucus | MIC | - | - | - | >100 µg/mL |
| Nc1ncccc1-c1cc(Cc2ccc(COc3ccccn3)cc2)no1 | - | broth dilution | Aspergillus terreus | MIC50 | - | - | - | 0.13 µg/mL |
| CSC1=NC(c2ccc(O)cc2)C(C#N)=C(N)N1 | - | agar diffusion | Aspergillus niger | zone | MTCC 282 | 50 µg/mL | - | 15 mm |
| Cc1ccc(-n2cc(-c3ccc([N+](=O)[O-])cc3)c(-c3ccnc4nncn34)n2)cc1 | - | agar diffusion / agar | Aspergillus fumigatus | zone | - | 5 mg/mL | - | 18 mm |
| COc1cc(/C=C/C(C)=O)ccc1O | - | broth dilution | Aspergillus oryzae | MFC | MTCC 262 | - | - | 1041 µM |
| O=C1S/C(=C\c2ccc(F)cc2)C(=O)N1CC(O)(Cn1nccn1)c1ccc(F)cc1F | - | - | Aspergillus glaucus | MIC | - | - | - | >100 µg/mL |
| CSC1=NC(c2ccc(Cl)cc2)C(C#N)=C(N)N1 | - | agar diffusion | Aspergillus niger | zone | MTCC 282 | 50 µg/mL | - | 15 mm |
| CC(C)C[C@H](N)C(=O)O | - | broth dilution | Aspergillus terreus | MFC100 | MRCM 26158 | - | - | >18000 µg/mL |
| CCC(C)n1ncn(-c2ccc(N3CCN(c4ccc(OC[C@H]5CO[C@](Cn6cncn6)(c6ccc(Cl)cc6Cl)O5)cc4)CC3)cc2)c1=O | - | - | Aspergillus fumigatus | Geometric mean MIC | 94 isolates | - | - | 0.45 µg/mL |
| O=C(NN1C(=O)CSC1C1C(c2ccccc2)=Nc2ccc(Cl)cc21)N1c2ccccc2C=Cc2ccccc21 | - | agar diffusion | Aspergillus terreus | zone | MTCC-1782 | 1000 µg/mL | - | 14 mm |
| C/C(=N\NC(=S)Nc1cccc(Cl)c1)c1c(O)ccc2c(C)cc(=O)oc12 | - | agar diffusion / agar | Aspergillus niger | inhibition | - | 25 µg/mL | - | 51.91% |
| C[C@H]1[C@H](O)[C@@H](C)/C=C/C=C/C=C/C=C/C=C/C=C/C=C/[C@H](O[C@@H]2O[C@H](C)[C@@H](O)[C@H](N)[C@@H]2O)C[C@@H]2O[C@](O)(C[C@@H](O)C[C@@H](O)CC[C@H](O)[C@@H](O)C[C@@H](O)CC(=O)O[C@H]1C)C[C@H](O)[C@H]2C(=O)O | - | broth dilution | Aspergillus terreus | MIC100 | ATCC 10690 | - | 48 h | 2 µg/mL |
| OO | - | agar | Aspergillus terreus | MIC99 | UAB673 | - | - | 2000 µM |
| CS(=O)(=O)c1nc(N)c(C#N)c(-c2ccc(O)cc2)n1 | - | agar diffusion | Aspergillus niger | zone | MTCC 282 | 25 µg/mL | - | 18 mm |
| O=C(NN=CC1C(c2ccccc2)=Nc2ccc(Cl)cc21)N1c2ccccc2C=Cc2ccccc21 | - | agar diffusion | Aspergillus terreus | zone | MTCC-1782 | 500 µg/mL | - | 9 mm |
| OC(Cn1cncn1)(Cn1cncn1)c1ccc(F)cc1F | - | - | Aspergillus niger | MIC100 | MTCC 282 | - | - | 6.25 µg/mL |
| O=C1S/C(=C\c2ccncc2)C(=O)N1CC(O)(Cn1nccn1)c1ccc(F)cc1F | - | - | Aspergillus glaucus | MIC | - | - | - | >100 µg/mL |
| C[C@H]1[C@H](O)[C@@H](C)/C=C/C=C/C=C/C=C/C=C/C=C/C=C/[C@H](O[C@@H]2O[C@H](C)[C@@H](O)[C@H](N)[C@@H]2O)C[C@@H]2O[C@](O)(C[C@@H](O)C[C@@H](O)CC[C@H](O)[C@@H](O)C[C@@H](O)CC(=O)O[C@H]1C)C[C@H](O)[C@H]2C(=O)O | - | agar diffusion | Aspergillus terreus | MIC | - | - | - | 19 µg/mL |
| CCC(C)n1ncn(-c2ccc(N3CCN(c4ccc(OC[C@H]5CO[C@](Cn6cncn6)(c6ccc(Cl)cc6Cl)O5)cc4)CC3)cc2)c1=O | sakA | broth dilution | Aspergillus fumigatus | inhibition | AF293 | 4 µg/mL | - | 99.89% |
| Cc1ccc(C(C)C)c(O)c1 | - | - | Aspergillus fumigatus | MLC | CECT2071 | - | - | 0.64 µg/mL |
| CC(=O)N1CCN(c2nc3ccc4oc(=O)ccc4c3s2)CC1 | - | - | Aspergillus niger | MIC100 | MTCC 282 | - | - | 200 µg/mL |
| COc1ccc(-c2n[nH]c(COc3nc(C(F)(F)F)nc4ccccc34)n2)cc1 | - | - | Aspergillus flavus | MIC100 | MTCC 277 | - | - | 25 µg/mL |
| O=C(c1cn2cnnc2nn1)c1nn(-c2ccccc2)cc1-c1ccc([N+](=O)[O-])cc1 | - | agar diffusion / agar | Aspergillus fumigatus | zone | - | 5 mg/mL | - | 16 mm |
| COc1ccc(C2N=C(SC)NC(N)=C2C#N)cc1 | - | agar diffusion | Aspergillus niger | zone | MTCC 282 | 25 µg/mL | - | 13 mm |
| O=c1ccc2c(ccc3nc(N4CCC(Cc5ccccc5)CC4)sc32)o1 | - | - | Aspergillus niger | MIC100 | MTCC 282 | - | - | 200 µg/mL |
| CC(=O)c1ccc(-c2nn(-c3ccc(C)cc3)cc2-c2ccc([N+](=O)[O-])cc2)nc1C | - | agar diffusion / agar | Aspergillus fumigatus | zone | - | 2.5 mg/mL | - | 0 mm |
| C[C@@H]1C/C=C/C=C/C=C/C=C/[C@H](OC2O[C@H](C)[C@@H](O)[C@H](N)[C@@H]2O)CC2O[C@](O)(C[C@@H](O)C[C@H]3O[C@@H]3/C=C/C(=O)O1)C[C@H](O)[C@H]2C(=O)O | - | - | Aspergillus spp. | MIC90 | Species complex | - | - | 32 µg/mL |
| CC(C)CC(O)C(=O)O | - | broth dilution / visual reading | Aspergillus terreus | MFC100 | MRCM 26158 | - | - | 18000 µg/mL |
| CSC1=NC(/C=C/c2ccccc2)C(C#N)=C(N)N1 | - | agar diffusion | Aspergillus niger | zone | MTCC 282 | 50 µg/mL | - | 15 mm |
| Cc1ccc(-n2cc(-c3ccc([N+](=O)[O-])cc3)c(-c3ccn[nH]3)n2)cc1 | - | agar diffusion / agar | Aspergillus fumigatus | zone | - | 2.5 mg/mL | - | 7 mm |
| CCC(C)CC(C)CCCCCCCCC(=O)N[C@H]1C[C@@H](O)[C@H](NCCN)NC(=O)[C@@H]2[C@@H](O)CCN2C(=O)[C@H]([C@H](O)CCN)NC(=O)[C@H]([C@H](O)[C@@H](O)c2ccc(O)cc2)NC(=O)[C@@H]2C[C@@H](O)CN2C(=O)[C@H]([C@@H](C)O)NC1=O | - | broth dilution | Aspergillus terreus | MIC | 11 | - | - | 128 µg/mL |
| COc1cc(/C=C2\SC(c3ccc(F)cc3)N(NC(=O)c3ccc(-n4c(-c5ccc(C)cc5)nc5ccccc5c4=O)cc3)C2=O)cc(OC)c1OC | - | - | Aspergillus clavatus | MIC100 | MTCC 1323 | - | - | 1000 µg/mL |
| COc1ccc(CN2CCN(c3nc4ccc5c(ccc(=O)n5C)c4s3)CC2)c(OC)c1OC | - | - | Aspergillus niger | MIC100 | MTCC 282 | - | - | 50 µg/mL |
| CCC(C)n1ncn(-c2ccc(N3CCN(c4ccc(OC[C@H]5CO[C@](Cn6cncn6)(c6ccc(Cl)cc6Cl)O5)cc4)CC3)cc2)c1=O | - | broth dilution | Aspergillus terreus | MIC50 | - | - | - | 0.13 µg/mL |
| Cc1ccc(-c2nc3ccccc3c(=O)n2-c2ccc(C(=O)NN3C(=O)/C(=C/c4ccc([N+](=O)[O-])cc4)SC3c3ccc(F)cc3)cc2)cc1 | - | - | Aspergillus clavatus | MIC100 | MTCC 1323 | - | - | 500 µg/mL |
| Cn1c(=O)ccc2c3sc(N4CCN(c5cccc(C(F)(F)F)c5)CC4)nc3ccc21 | - | - | Aspergillus niger | MIC100 | MTCC 282 | - | - | 50 µg/mL |
| Cc1ccc(-c2nc3ccccc3c(=O)n2-c2ccc(C(=O)NN3C(=O)/C(=C/c4ccccc4Br)SC3c3ccc(F)cc3)cc2)cc1 | - | - | Aspergillus clavatus | MIC100 | MTCC 1323 | - | - | 25 µg/mL |
| O=C(NN1C(=O)CSC1C1C(c2ccccc2)=Nc2ccccc21)N1c2ccccc2C=Cc2ccccc21 | - | agar diffusion | Aspergillus terreus | zone | MTCC-1782 | 1000 µg/mL | - | 3 mm |
| Cc1ccc(-c2nc3ccccc3c(=O)n2-c2ccc(C(=O)NN3C(=O)/C(=C/c4ccccc4[N+](=O)[O-])SC3c3ccc(F)cc3)cc2)cc1 | - | - | Aspergillus clavatus | MIC100 | MTCC 1323 | - | - | 500 µg/mL |
| c1ccc(-c2ccc(C(c3ccccc3)n3ccnc3)cc2)cc1 | - | broth dilution | Aspergillus versicolor | MIC | ATCC 11730 | - | - | 100 µg/mL |

The first 6 rows once more:

compound,mutations,read by,organism,endpoint,strain or isolate,dose,conditions,result
CCC(C)/C=C1\SC(=O)N(CC(O)(Cn2nccn2)c2ccc(F)cc2F)C1=O,-,-,Aspergillus glaucus,MIC,-,-,-,>100 µg/mL
Cc1ccc(-n2cc(-c3ccc([N+](=O)[O-])cc3)c(-c3ccon3)n2)cc1,-,agar diffusion / agar,Aspergillus fumigatus,zone,-,1.25 mg/mL,-,9 mm
Cc1nc(OCc2nc(-c3ccco3)n[nH]2)c2ccccc2n1,-,-,Aspergillus flavus,MIC100,MTCC 277,-,-,25 µg/mL
CCCCCCCCCCCCOC(=O)[C@]1(O)C[C@@H](O)[C@@H](O)[C@H](OC(=O)/C=C/c2ccc(O)c(O)c2)C1,-,absorbance,Aspergillus parasiticus,MIC50,UMIP 1142.76,-,-,750 µg/mL
COc1ccc(-c2n[nH]c(COc3nc(C(F)(F)F)nc4ccccc34)n2)cc1OC,-,-,Aspergillus flavus,MIC100,MTCC 277,-,-,25 µg/mL
Cn1cccc1/C=C1\SC(=O)N(CC(O)(Cn2nccn2)c2ccc(F)cc2F)C1=O,-,-,Aspergillus glaucus,MIC,-,-,-,>100 µg/mL